Results reported in PMC9207808 (ACS Chemical Biology, 2022).

Experiment: general procedure: Fmoc solid-phase peptide synthesis; Preloaded Wang resins; Fmoc-Rink Amide MBHA resin; DIC / Oxyma Pure
Settings: whole synthesis, 220 nm

Row | Substance | final LC-MS purity [%]
1 | Ac-WMDDEFAAIMAVHGNELRELAAK-OH | 98
2 | Ac-WMDDEFAAIMAVHGNELRALADK-OH | 94
3 | Ac-WMDDAFAAIMAVHGNELRELADK-OH | 97
4 | Ac-WMADEFAAIMAVHGNELRELADK-OH | 99
5 | Ac-WMDDEFAAIMAVHGNEARELADK-OH | 99
6 | Ac-WMDDEAAAIMAVHGNELRELADK-OH | 99
7 | Ac-EFAAIMAVHGNELRELA-OH | 99
8 | Ac-WMDDEFAAIMAVHGNELRELADK-OH | 99
9 | Ac-WMDAEFAAIMAVHGNELRELADK-OH | 98
10 | Ac-WMDDEFAAIMAVHGNELRELA-OH | 99
11 | Ac-WMDDEFAAIMAVHGAELRELADK-OH | 96
12 | Ac-WMDDEFAAIMAAHGNELRELADK-OH | 95
13 | Ac-WMDDEFAAIMAVHGNELRELADA-OH | 93
14 | Ac-WMDDEFAAIMAVH-NH2 | 99
15 | Ac-FAAIMAVHGNELREL-OH | 99
16 | Ac-WMDDEFAAAMAVHGNELRELADK-OH | 99
17 | Ac-WMDDEFAAIMAVHGNELAELADK-OH | 97
18 | Ac-WMDDEFAAIMAVHANELRELADK-OH | 97
19 | Ac-WMDDEFAAIAAVHGNELRELADK-OH | 99
20 | Ac-WMDDEFAAIMAVHGNALRELADK-OH | 97
21 | Ac-WNELRELADK-OH | 99
22 | Ac-WMDDEFAAIMAVHGNELREAADK-OH | 97
23 | Ac-EFAAIMAVHGNELRELADK-OH | 98
24 | Ac-WADDEFAAIMAVHGNELRELADK-OH | 99
25 | Ac-WMDDEFAAIMAVAGNELRELADK-OH | 96
